Results of unrelated studies side by side (data: NIAID ChemDB).

Shared fields: tests on isolated targets; species: Hepatitis C virus; protein: Nonstructural protein 5B; endpoint: inhibition

Inhibition is in % at the dose shown (toxicity tests: loss of growth or viability). Lines come from different laboratories, so protocols vary.

compound	tested at	result
COc1nc(Nc2ccc3[nH]ncc3c2)nc(NN2CCN(C)CC2)n1	10 µg/mL	59%
O=C(c1ccc(S(=O)(=O)Nc2ccc(N3CCOCC3)cc2)cc1)N(Cc1ccccn1)Cc1ccccn1	0.01 µg/mL	18%
CC(C)CNc1cc(C(=O)Nc2ccc3cn[nH]c3c2)c(F)cc1F	0.1 µg/mL	0%
O=C(NCCN1CCOCC1)c1ccc(S(=O)(=O)Nc2ccc(N3CCOCC3)cc2)cc1	0.01 µg/mL	15%
CSc1nc(Nc2ccc(N3CCOCC3)cc2)cc(N2CCN(CC(=O)NC(C)C)CC2)n1	1 µg/mL	65%
COc1nc(Nc2ccc3[nH]ncc3c2)nc(N2CCC(C(N)=O)CC2)n1	10 µg/mL	85%
CSc1nc(Nc2ccc(N3CCOCC3)cc2)cc(N2CCN(CC(=O)N3CCOCC3)CC2)n1	1 µg/mL	72%
O=C(Nc1ccc2cn[nH]c2c1)c1cc(NCCN2CCOCC2)c(F)cc1F	10 µg/mL	28%
O=C(NCCc1cccnc1)c1ccc(S(=O)(=O)Nc2ccc(N3CCOCC3)cc2)cc1	0.01 µg/mL	25%
O=C(Nc1ccc2[nH]ncc2c1)c1cc(NCCCn2ccnc2)c(F)cc1F	0.1 µg/mL	29%
Cc1cnc(CNC(=O)c2ccc(S(=O)(=O)Nc3ccc(N4CCOCC4)cc3)cc2)cn1	10 µg/mL	97%
CCOC(=O)N1CCN(c2nc(Nc3ccc4[nH]ncc4c3)nc(OC)n2)CC1	10 µg/mL	44%
CC(Cc1ccccn1)Nc1cc(C(=O)Nc2ccc3cn[nH]c3c2)c(F)cc1F	1 µg/mL	26%
COc1nc(Nc2ccc3[nH]ncc3c2)nc(NC2CC2)n1	0.1 µg/mL	12%
O=C(Nc1ccc2[nH]ncc2c1)c1cc(NCCN2CCOCC2)c(F)cc1F	10 µg/mL	52%

2 of the rows above, restated:

| compound | tested at | result |
|---|---|---|
| O=C(c1ccc(S(=O)(=O)Nc2ccc(N3CCOCC3)cc2)cc1)N(Cc1ccccn1)Cc1ccccn1 | 0.01 µg/mL | 18% |
| O=C(NCCc1cccnc1)c1ccc(S(=O)(=O)Nc2ccc(N3CCOCC3)cc2)cc1 | 0.01 µg/mL | 25% |